## Share of PSTVd loop 6 variants by leaf site

Data from the supplement of Wu et al. 2024, doi:10.1371/journal.ppat.1012142.

Region: loop 6 of PSTVd (intermediate strain), upper and lower strand joined, each 5' to 3', the first 5 letters being the upper strand, closing pairs included. Wild type: UGACCGCGAG. Varied positions (N): UNNNCGNNNG.

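Three N. benthamiana plants were inoculated with the whole mutant pool. Progeny were sequenced from the inoculated region (day 5), the margin of the inoculated leaf (day 10) and systemic leaves (day 12).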

Numbers give reads per thousand; 0 = not seen among the reads, higher = more abundant. Each site shows the three plants. "Pool" is the share in the plasmid pool used as inoculum, on the same scale. The inoculated region was read from the minus strand, the other sites from the plus strand. Samples held 36,220 to 57,551 reads, so the smallest values rest on one or two reads. Sequences that differ at fixed positions probably stem from PCR or sequencing errors, and defective variants can be carried along by functional ones. Wild type was 20.7 per thousand in the pool and the most common sequence in every sample (inoculated region 195, 198, 203; leaf margin 629, 591, 734; systemic leaves 942, 870, 868).

{"sequence": "UGUCCGAUCG", "pool": "0.183", "inoculated region": "0.0695 / 0.108 / 0.0369", "leaf margin": "0 / 0 / 0", "systemic leaves": "0 / 0 / 0"}
{"sequence": "UGUCCGAUGG", "pool": "0.196", "inoculated region": "0.139 / 0.0898 / 0.111", "leaf margin": "0 / 0 / 0", "systemic leaves": "0 / 0 / 0"}
{"sequence": "UGUCCGAUUG", "pool": "0.222", "inoculated region": "0.104 / 0.0539 / 0.129", "leaf margin": "0 / 0 / 0", "systemic leaves": "0 / 0.0202 / 0"}
{"sequence": "UGUCCGCAAG", "pool": "0.157", "inoculated region": "0.712 / 0.844 / 0.498", "leaf margin": "0 / 0.126 / 0.139", "systemic leaves": "0.0180 / 0.0202 / 0"}
{"sequence": "UGUCCGCACG", "pool": "0.275", "inoculated region": "0.191 / 0.0719 / 0.111", "leaf margin": "0 / 0 / 0.0232", "systemic leaves": "0 / 0 / 0"}
{"sequence": "UGUCCGCAGG", "pool": "0.222", "inoculated region": "0.191 / 0.0719 / 0.0369", "leaf margin": "0.0276 / 0 / 0.0232", "systemic leaves": "0 / 0 / 0"}
{"sequence": "UGUCCGCAUG", "pool": "0.131", "inoculated region": "0.851 / 0.754 / 0.572", "leaf margin": "0.0552 / 0 / 0", "systemic leaves": "0.0180 / 0.0404 / 0.0615"}
{"sequence": "UGUCCGCCAG", "pool": "0.275", "inoculated region": "0.712 / 0.790 / 0.516", "leaf margin": "0.0552 / 0.0504 / 0.139", "systemic leaves": "0 / 0 / 0"}
{"sequence": "UGUCCGCCCG", "pool": "0.248", "inoculated region": "0.122 / 0.108 / 0.0553", "leaf margin": "0 / 0 / 0", "systemic leaves": "0 / 0 / 0"}
{"sequence": "UGUCCGCCGG", "pool": "0.222", "inoculated region": "0.122 / 0.126 / 0.0553", "leaf margin": "0.0276 / 0 / 0.0232", "systemic leaves": "0 / 0 / 0.0205"}
{"sequence": "UGUCCGCCUG", "pool": "0.327", "inoculated region": "0.156 / 0.108 / 0.0553", "leaf margin": "0.0276 / 0 / 0", "systemic leaves": "0 / 0 / 0"}
{"sequence": "UGUCCGCGAG", "pool": "0.275", "inoculated region": "0.209 / 0.359 / 0.369", "leaf margin": "0.248 / 0.177 / 0.232", "systemic leaves": "0.270 / 0.121 / 0.431"}
{"sequence": "UGUCCGCGCG", "pool": "0.209", "inoculated region": "0.226 / 0.162 / 0.0738", "leaf margin": "0.0276 / 0 / 0", "systemic leaves": "0 / 0 / 0"}
{"sequence": "UGUCCGCGGG", "pool": "0.288", "inoculated region": "0.0869 / 0.108 / 0.111", "leaf margin": "0 / 0 / 0", "systemic leaves": "0 / 0 / 0"}
{"sequence": "UGUCCGCGUG", "pool": "0.183", "inoculated region": "0.747 / 0.719 / 0.609", "leaf margin": "0.0828 / 0.177 / 0.0232", "systemic leaves": "0 / 0 / 0"}
{"sequence": "UGUCCGCUAG", "pool": "0.170", "inoculated region": "0.139 / 0.144 / 0.111", "leaf margin": "0 / 0 / 0.0696", "systemic leaves": "0 / 0 / 0"}
{"sequence": "UGUCCGCUCG", "pool": "0.275", "inoculated region": "0.0695 / 0.0719 / 0.111", "leaf margin": "0 / 0 / 0.0232", "systemic leaves": "0 / 0 / 0"}
{"sequence": "UGUCCGCUGG", "pool": "0.131", "inoculated region": "0.0521 / 0.0719 / 0.0553", "leaf margin": "0 / 0 / 0", "systemic leaves": "0 / 0 / 0"}
{"sequence": "UGUCCGCUUG", "pool": "0.261", "inoculated region": "0.156 / 0.0539 / 0.111", "leaf margin": "0.0276 / 0 / 0.0232", "systemic leaves": "0 / 0 / 0"}
{"sequence": "UGUCCGGAAG", "pool": "0.0915", "inoculated region": "0.139 / 0.144 / 0.129", "leaf margin": "0 / 0 / 0.0232", "systemic leaves": "0 / 0 / 0"}
{"sequence": "UGUCCGGACG", "pool": "0.222", "inoculated region": "0.0521 / 0.0539 / 0.111", "leaf margin": "0 / 0 / 0", "systemic leaves": "0 / 0 / 0"}
{"sequence": "UGUCCGGAGG", "pool": "0.131", "inoculated region": "0.104 / 0.0539 / 0.0922", "leaf margin": "0 / 0 / 0", "systemic leaves": "0 / 0 / 0"}
{"sequence": "UGUCCGGAUG", "pool": "0.366", "inoculated region": "0.122 / 0.0180 / 0.0553", "leaf margin": "0.0276 / 0 / 0", "systemic leaves": "0 / 0 / 0"}
{"sequence": "UGUCCGGCAG", "pool": "0.235", "inoculated region": "0.156 / 0.108 / 0.0738", "leaf margin": "0.0552 / 0 / 0", "systemic leaves": "0 / 0 / 0"}
{"sequence": "UGUCCGGCCG", "pool": "0.183", "inoculated region": "0.122 / 0.0898 / 0.166", "leaf margin": "0.0276 / 0 / 0.0232", "systemic leaves": "0 / 0 / 0"}
{"sequence": "UGUCCGGCGG", "pool": "0.131", "inoculated region": "0.0869 / 0.0539 / 0.111", "leaf margin": "0 / 0 / 0", "systemic leaves": "0 / 0 / 0"}
{"sequence": "UGUCCGGCUG", "pool": "0.209", "inoculated region": "0.0869 / 0.0898 / 0.129", "leaf margin": "0 / 0 / 0.0232", "systemic leaves": "0 / 0 / 0"}
{"sequence": "UGUCCGGGAG", "pool": "0.235", "inoculated region": "0.156 / 0.126 / 0.0369", "leaf margin": "0.0276 / 0 / 0", "systemic leaves": "0 / 0 / 0"}
{"sequence": "UGUCCGGGCG", "pool": "0.222", "inoculated region": "0.104 / 0.0719 / 0.0553", "leaf margin": "0 / 0 / 0", "systemic leaves": "0 / 0 / 0"}
{"sequence": "UGUCCGGGGG", "pool": "0.222", "inoculated region": "0.226 / 0.0539 / 0.111", "leaf margin": "0 / 0 / 0", "systemic leaves": "0 / 0 / 0"}
{"sequence": "UGUCCGGGUG", "pool": "0.170", "inoculated region": "0.104 / 0.162 / 0.111", "leaf margin": "0 / 0 / 0", "systemic leaves": "0 / 0 / 0"}
{"sequence": "UGUCCGGUAG", "pool": "0.261", "inoculated region": "0.0695 / 0.0539 / 0.0738", "leaf margin": "0.0276 / 0 / 0", "systemic leaves": "0 / 0 / 0"}

Extract of 4 entries:

With UGUCCGGAAG (pool 0.0915) the assay gave inoculated region 0.139 / 0.144 / 0.129; leaf margin 0 / 0 / 0.0232; systemic leaves 0 / 0 / 0.
With UGUCCGCUUG (pool 0.261) the assay gave inoculated region 0.156 / 0.0539 / 0.111; leaf margin 0.0276 / 0 / 0.0232; systemic leaves 0 / 0 / 0.
With UGUCCGCGGG (pool 0.288) the assay gave inoculated region 0.0869 / 0.108 / 0.111; leaf margin 0 / 0 / 0; systemic leaves 0 / 0 / 0.
With UGUCCGCUAG (pool 0.170) the assay gave inoculated region 0.139 / 0.144 / 0.111; leaf margin 0 / 0 / 0.0696; systemic leaves 0 / 0 / 0.